Values of other authors as cited in US20170246235A1, “GREEN TEA COMPOSITIONS” (priority 2014, published 2017).

Molecular target: T1, HIV-1 integrase (Human immunodeficiency virus type 1 group M subtype B, UniProt P04585)
T1 construct: Full-length recombinant HIV-1 integrase protein (200 nM, purified from bacteria); literature Express Biotech International; host or cells: bacteria
Conditions: cited from earlier work

catechin gallate [CG]
IC50 for HIV-1 integrase: slightly higher than Raltegravir
